Record: PubChem BioAssay AID1259414 (Drosophila RNAi Screening Center, 2018)
In all, the deposit lists about 24,000 reagents; shown is a random part of those that have a named target and a result. Of all reagents, about 1,210 (5%) are marked active. 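Inactive calls also include excluded dsRNAs with several or no targets, genes unexpressed in JW18, and well A1, regardless of score.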 Names joined by + are all predicted targets of the reagent.

Screen: 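Fly genes that alter Wolbachia amount inside host cells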 (primary screen)
Cell system: Drosophila JW18 cells infected with Wolbachia
Reagents: long dsRNA against Drosophila genes, 0.25 µg dsRNA per well of a 384-well plate
Duration: 5 days
Conditions: cells persistently infected with Wolbachia before knock-down; no added drug
Detection: 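Imaged fluorescence in situ signal for Wolbachia 23S rRNA per DAPI-counted host cell, given as a robust z-score within each plate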
Scale: Wolbachia per cell robust z: higher = more Wolbachia per host cell than the plate typical
Rule for the call: 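Active if absolute robust z reaches 1.5 in two or more of three replicates, leaving out multi- or no-target dsRNAs, genes unexpressed in JW18 and A1 wells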

no.	Gene	amplicon	Wolbachia per cell robust z, rep 1	Wolbachia per cell robust z, rep 2	Wolbachia per cell robust z, rep 3	activity call
1	CG33630	DRSC14546	0.308	-0.217	-0.212	inactive
2	Usp30 (Ubiquitin specific protease 30)	DRSC18265	-0.0578	-6.1	-0.14	inactive
3	Usp30 (Ubiquitin specific protease 30)	DRSC29538	-0.793	-1.7	-1.73	active
4	beta-Spec (beta Spectrin)	DRSC20311	1.61	-1.68	0.566	inactive
5	beta-Spec (beta Spectrin)	DRSC40855	-0.93	-1.79	-2.61	active
6	Dhc64C (Dynein heavy chain 64C)	DRSC08656	0.867	0.802	1.5	inactive
7	Dhc64C (Dynein heavy chain 64C)	DRSC25497	0.0015	-0.304	0.332	inactive
8	CG43316	DRSC06297	0.0816	0.581	-1.8	inactive
9	CG43316	DRSC28460	0.617	0.185	0.0523	inactive
10	CG17781 + CG17780	DRSC25581	0.464	1.07	0.0422	inactive
11	Npc2f (Niemann-Pick type C-2f)	DRSC15980	-1.28	0.213	0.63	inactive
12	Hmgs (HMG Coenzyme A synthase)	DRSC06866	0.619	0.374	1.02	inactive
13	Hmgs (HMG Coenzyme A synthase)	DRSC28746	-0.0379	-1	-2.43	inactive
14	arg (arginase)	DRSC18737	-0.927	-0.682	0.184	inactive
15	arg (arginase)	DRSC29488	-0.654	-1.4	-0.713	inactive
16	Cdk9 (Cyclin-dependent kinase 9)	DRSC04601	1.81	1.68	2.37	active
17	Tbcc (Tubulin-binding cofactor C)	DRSC00223	-0.482	-1.48	0.403	inactive
18	Tbcc (Tubulin-binding cofactor C)	DRSC30109	-0.334	0.139	-1.43	inactive
19	CG14715	DRSC14938	1.04	0.36	-5.14	inactive
20	CG9083 + Tpc2	DRSC04625	1.26	0.487	-0.13	inactive
21	Oatp58Da (Organic anion transporting polypeptide 58Da)	DRSC04365	-2.94	0.23	-0.429	inactive
22	Oatp58Da (Organic anion transporting polypeptide 58Da)	DRSC25499	0.0202	0.826	-0.537	inactive
23	HtrA2 (HTRA2-related serine protease)	DRSC16425	0.997	0.456	-9.3	inactive
24	HtrA2 (HTRA2-related serine protease)	DRSC28553	-3.12	-2.17	-4.05	active
25	Nemp (Nuclear envelope integral membrane protein)	DRSC20206	-1.24	0.0923	-1.1	inactive
26	Nemp (Nuclear envelope integral membrane protein)	DRSC26963	-0.0426	1.28	0.7	inactive
27	Gar1 (Gar1 ribonucleoprotein)	DRSC04441	-4.77	-0.28	-0.165	inactive
28	Gar1 (Gar1 ribonucleoprotein)	DRSC25331	0.592	0.642	0.0224	inactive
29	CG15458	DRSC20529	0.175	0.236	-0.197	inactive
30	CG13675	DRSC23124	-3.02	0.809	3	inactive
31	CG32650	DRSC19899	-3.43	-5.62	1.41	active
32	CG14506	DRSC14858	-4.42	0.048	-0.53	inactive
33	Eato (Engulfment ABC Transporter in the ovary)	DRSC01891	1.06	1.2	0.955	inactive
34	Eato (Engulfment ABC Transporter in the ovary)	DRSC03061	0.972	1.06	2.3	inactive
35	CG18636	DRSC02685	-0.539	-0.522	-3.03	inactive
36	CG18636	DRSC24922	-2.67	-0.501	0.754	inactive
37	CG32686	DRSC17645	0.532	-0.941	0.0132	inactive
38	CG32686	DRSC25488	-1.18	-1.85	-0.282	inactive
39	Alp6 (Alkaline phosphatase 6)	DRSC06710	-1.49	-2.7	0.416	inactive
40	Zasp67 (Z band alternatively spliced PDZ-motif protein 67)	DRSC10169	1	-0.985	-5.64	inactive
41	Zasp67 (Z band alternatively spliced PDZ-motif protein 67)	DRSC24457	0.0745	1.16	1	inactive
42	acs (arcus)	DRSC08185	-0.284	-2.35	-2.77	inactive
43	acs (arcus)	DRSC27629	-0.0882	0.492	0.547	inactive
44	mars	DRSC06656	-0.25	0.218	0.519	inactive
45	CG9926	DRSC16582	0.625	0.26	-0.139	inactive
46	CG9926	DRSC29175	0.993	-0.243	0.231	inactive
47	CG32302	DRSC08340	-3.95	0.64	0.822	inactive
48	SPH93 (Serine protease homolog 93)	DRSC02978	-0.0164	-0.202	0.0634	inactive
49	meep	DRSC07948	0.47	3.4	0.888	inactive
50	meep	DRSC25511	0.551	1.32	0.553	inactive
51	Sans (Scaffold protein containing ankyrin repeats and SAM domain)	DRSC06357	-0.317	-0.00562	0.879	inactive
52	Sans (Scaffold protein containing ankyrin repeats and SAM domain)	DRSC27928	0.334	1.2	-1.06	inactive
53	eIF2A (eukaryotic translation initiation factor 2A)	DRSC11825	0.119	-0.0568	-0.216	inactive
54	Ugt317A1 (UDP-glycosyltransferase family 317 member A1)	DRSC04470	0.611	-0.998	0.331	inactive
55	Toll-4	DRSC03458	-0.218	0.0808	0.729	inactive
56	CG14200	DRSC19555	2.31	0.377	1.73	active
57	CG14200	DRSC22979	-0.364	0.0559	-0.375	inactive
58	CG14200	DRSC25784	0.00499	-0.0839	-0.696	inactive
59	CycA (Cyclin A)	DRSC09132	3.53	2.92	3.68	active
60	CycA (Cyclin A)	DRSC11123	5.53	3.8	5.41	active
61	CAH16 (Carbonic anhydrase 16)	DRSC15371	0.825	0.852	0.481	inactive
62	CAH16 (Carbonic anhydrase 16)	DRSC27986	1.62	0.417	1.28	inactive
63	CG34224	DRSC38880	-1.87	-0.735	-3.16	inactive
64	CG5731	DRSC02883	-0.199	0.0687	0.18	inactive
65	CG5731	DRSC25969	-4.25	0.112	-1.22	inactive
66	CG3984	DRSC15530	0.0485	-6.65	-1.24	inactive
67	CG14369	DRSC14831	-0.505	-0.429	-0.815	inactive
68	CG14369	DRSC25713	1.54	0.121	-0.218	inactive

Single entries from the list.
Eato (Engulfment ABC Transporter in the ovary) [DRSC01891], Wolbachia per cell robust z, rep 1 → 1.06
arg (arginase) [DRSC18737], Wolbachia per cell robust z, rep 3 → 0.184
Under “Wolbachia per cell robust z, rep 1”, Ugt317A1 (UDP-glycosyltransferase family 317 member A1) [DRSC04470] reads 0.611
Result for CG5731 [DRSC25969] in “Wolbachia per cell robust z, rep 1”: -4.25
For “Wolbachia per cell robust z, rep 3”, CAH16 (Carbonic anhydrase 16) [DRSC27986] reads 1.28
Gar1 (Gar1 ribonucleoprotein) [DRSC25331], Wolbachia per cell robust z, rep 3 = 0.0224
